Results of unrelated studies side by side (data: NIAID ChemDB).

Shared fields: growth or infection tests; organism: Mycobacterium avium intracellulare; endpoint: MIC

An empty or dashed field is not shown.

compound | strain | value
CCN1C(NNC(=O)c2ccncc2)=NS(=O)(=O)c2ccccc21 | ATCC 13950 | >16 µg/mL
CN(C)C/C=C(\c1ccc(N)cc1)c1ccc(-c2ccc(Br)cc2)cc1 |  | 78 µg/mL
COc1cc2ccnc3c2c(c1OC(=O)c1ccc(OC(F)(F)F)cc1)N(C)C=C3 |  | 5 µg/mL
Cc1c(C)c(C)[c-](C)c1C.N[C@H](C(=O)[O-])c1ccccc1.[Cl][Rh+2] | 1406T | 15 µg/mL
CN1C(NNC(=O)c2cccnc2)=NS(=O)(=O)c2ccc(Cl)cc21 | ATCC 13950 | >16 µg/mL
CCCCCc1ccc(C(=O)Oc2c(OC)cc3ccnc4c3c2N(C)C=C4)cc1 |  | 2.5 µg/mL
CO[C@H]1/C=C/O[C@@]2(C)Oc3c(C)c(O)c4c(O)c(c5c(c4c3C2=O)NC2(CCN(CC(C)C)CC2)N=5)=NC(=O)/C(C)=C\C=C\[C@H](C)[C@H](O)[C@@H](C)[C@@H](O)[C@@H](C)[C@H](OC(C)=O)[C@@H]1C | CIPT 140310031 | 0.1 µg/mL
CN(C)C/C=C(\c1ccc(O)cc1)c1ccc(-c2ccccc2)cc1 |  | 98 µg/mL
O=C(NNC1=NS(=O)(=O)c2ccccc2N1c1ccccc1)c1cccnc1 | ATCC 13950 | >16 µg/mL
Cc1ccc(/C(=C\CN(C)C)c2ccc(-c3ccc(Br)cc3)cc2)cc1 |  | 79 µg/mL
COc1c(O)c2c(=O)cc(OC)c3c4c(OC)cc(=O)c5c(O)c(OC)c6c(c(c1CC(C)(O)C6C(C)=O)c23)c54 |  | 22.5 µg/mL
CCCCS/C(N)=N/N=C/c1ccc2ccccc2n1 | CNCTC D38/92 | 16 µM
CN(C)CC=C(c1ccc(Br)cc1)c1ccc(-c2ccc(Br)cc2)cc1 |  | 68 µg/mL
CN(C)CCCN1c2ccccc2Sc2ccc(Cl)cc21 | R 8656 | 50 µg/mL
CCCC(C)S/C(N)=N/N=C/c1ccc2ccccc2n1 | CNCT D39/93 | 63 µM
CN1C(NNC(=O)c2cnccn2)=NS(=O)(=O)c2ccc(Cl)cc21 | ATCC 13950 | >16 µg/mL
CN(C)C/C=C(\c1ccc(O)cc1)c1ccc(-c2ccc(Br)cc2)cc1 |  | 78 µg/mL
CCc1ccc(C(=O)Oc2c(OC)cc3ccnc4c3c2N(C)C=C4)cc1 |  | 2.5 µg/mL
COc1cc(C2=NCCN2)ccc1OC/C=C\COc1ccc(C2=NCCN2)cc1OC | ATCC 23068 | 50 µg/mL
Clc1ccc2c(c1)nc1cc(Nc3ccccc3)c(=NC3CCCCC3)cc-1n2-c1ccccc1 | 99241 | 2 µg/mL
CC[C@H]1OC(=O)[C@H](C)[C@@H](O[C@H]2C[C@@](C)(OC)[C@@H](O)[C@H](C)O2)[C@H](C)[C@@H](O[C@@H]2O[C@H](C)C[C@H](N(C)C)[C@H]2O)[C@](C)(OC)C[C@@H](C)C(=O)[C@H](C)[C@@H](O)[C@]1(C)O | N-260 | 4 µg/mL
C[C@@H]1CN(c2c(F)c(N)c3c(=O)c(C(=O)O)cn(C4CC4)c3c2F)C[C@H](C)N1 | N-551 (HIV-) | 4 µg/mL
COc1c(N2CCNC(C)C2)c(F)cc2c(=O)c(C(=O)O)cn(C3CC3)c12 | N-260 | 6.25 µg/mL
CC1COc2c(N3CCN(C)CC3)c(F)cc3c(=O)c(C(=O)O)cn1c23 |  | 25 µg/mL
CN(C)C/C=C(/c1ccc(-c2ccc(Br)cc2)cc1)c1ccc([N+](=O)[O-])cc1 |  | 73 µg/mL
COc1cc2ccnc3c2c(c1OC(=O)c1ccc(C)cc1)N(C)C=C3 |  | 5 µg/mL
O=C(NNC1=NS(=O)(=O)c2ccccc2N1c1ccccc1)c1ccncc1 | ATCC 13950 | >16 µg/mL
OCCN1CCN(CCC=C2c3ccccc3Sc3ccc(Cl)cc32)CC1 | R 7313 | 25 µg/mL
CN1C(NNC(=O)c2cccnc2)=NS(=O)(=O)c2ccccc21 | ATCC 13950 | >16 µg/mL
CO[C@H]1/C=C/O[C@@]2(C)Oc3c(C)c(=O)c4c(O)c(c5oc6cc(N7CCCC(C)C7)ccc6nc5c4c3C2=O)NC(=O)/C(C)=C\C=C\[C@H](C)[C@H](O)[C@@H](C)[C@@H](O)[C@@H](C)[C@H](OC(C)=O)[C@@H]1C | Shibazaki | 1.25 µg/mL
CC1(C)S[C@@H]2[C@H](NC(=O)[C@H](C(=O)[O-])c3ccsc3)C(=O)N2[C@H]1C(=O)[O-].[Na+].[Na+] | CIPT 140310001 | 35 µg/mL
CO[C@H]1/C=C/O[C@@]2(C)Oc3c(C)c(O)c4c(O)c(c(/C=N/N5CCN(C6CCCC6)CC5)c(O)c4c3C2=O)NC(=O)/C(C)=C\C=C\[C@H](C)[C@H](O)[C@@H](C)[C@@H](O)[C@@H](C)[C@H](OC(C)=O)[C@@H]1C | 119 | 1 µg/mL
COc1cccc(C(=O)Oc2c(OC)cc3ccnc4c3c2N(C)C=C4)c1 |  | 20 µg/mL
CO[C@H]1/C=C/O[C@@]2(C)Oc3c(C)c(O)c4c(O)c(c5c(c4c3C2=O)NC2(CCN(CC(C)C)CC2)N=5)=NC(=O)/C(C)=C\C=C\[C@H](C)[C@H](O)[C@@H](C)[C@@H](O)[C@@H](C)[C@H](OC(C)=O)[C@@H]1C | N-486 (HIV-) | 0.25 µg/mL
CN1C(NC(=O)c2cnccn2)=NS(=O)(=O)c2cc(Cl)ccc21 | ATCC 13950 | >16 µg/mL
COc1ccc2c(c1)N(C[C@H](C)CN(C)C)c1ccccc1S2 | T 7360 | 50 µg/mL
CN1C(NNC(=O)c2ccncc2)=NS(=O)(=O)c2ccccc21 | ATCC 13950 | >16 µg/mL
CCCCCCCC/C=C/CCCCCCCCC(=O)Oc1c(OC)cc2ccnc3c2c1N(C)C=C3 |  | 0.3 µg/mL
CCS/C(N)=N/N=C/c1ccc2ccccc2n1 | CNCTC D38/92 | >1000 µM
NC[C@H]1O[C@H](O[C@H]2[C@H](O)[C@@H](O[C@H]3O[C@H](CO)[C@@H](O)[C@H](N)[C@H]3O)[C@H](N)C[C@@H]2N)[C@H](O)[C@@H](O)[C@@H]1O | CIPT 140310021 | 10 µg/mL
COc1cc2ccnc3c2c(c1OC(=O)c1cccc(C)c1)N(C)C=C3 |  | 10 µg/mL
CCS/C(N)=N/N=C/c1nc2ccccc2n1C | CNCTC D38/92 | 125 µM
CCN(CC)c1ccc2nc3c(oc2c1)c1c(O)c2c(=O)c(C)c4c(c23)C(=O)[C@@](C)(O/C=C/[C@H](OC)[C@@H](C)[C@@H](OC(C)=O)[C@H](C)[C@H](O)[C@H](C)[C@@H](O)[C@@H](C)/C=C/C=C(/C)C(=O)N1)O4 | Shibazaki | 1.25 µg/mL
CC[C@@H](C)[C@H](OC(=O)/C=C/c1ccccc1)[C@H](C)[C@H](O)C/C=C/C=C/C(N)=O |  | 100 µg/mL
CCC(C)C(=O)Oc1ccc(OC)cc1C1OC1C | ATCC 19709 | 3.1 µg/mL
CO[C@H]1/C=C/O[C@@]2(C)Oc3c(C)c(O)c4c(=O)c(c5oc6cc(N7CCN(CC(C)C)CC7)cc(=O)c6nc5c4c3=C2O)NC(=O)/C(C)=C\C=C\[C@H](C)[C@H](O)[C@@H](C)[C@@H](O)[C@@H](C)[C@H](OC(C)=O)[C@@H]1C | N-919 (HIV-) | 0.0313 µg/mL

A second listing of 3 rows from above:

compound	strain	value
CN(C)CCCN1c2ccccc2Sc2ccc(Cl)cc21	R 8656	50 µg/mL
CN(C)C/C=C(\c1ccc(N)cc1)c1ccc(-c2ccc(Br)cc2)cc1		78 µg/mL
CN1C(NNC(=O)c2cnccn2)=NS(=O)(=O)c2ccc(Cl)cc21	ATCC 13950	>16 µg/mL

Neighbouring rows are from separate reports.